Experimental data published in paper PMC7641913.
Construct, isoform or probe ends are uncertain for at least one entry.

Chains of the proteins cited; added tags and fusions are not shown. Lines headed by an entry give the natural chain unless they say otherwise; changes in a name come on top.
UniProt P0C6C8: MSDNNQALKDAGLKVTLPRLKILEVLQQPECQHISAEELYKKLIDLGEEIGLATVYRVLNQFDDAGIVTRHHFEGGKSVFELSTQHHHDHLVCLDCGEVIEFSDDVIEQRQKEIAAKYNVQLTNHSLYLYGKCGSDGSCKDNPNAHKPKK

Target: His-Fur (UniProt P0C6C8)
Assay: DNase I footprinting
Conditions: 100 uM MnCl, 1 mM MgCl2, 2.95 and 8.85 pmol His-Fur; 10 mM Tris-HCl pH 7.5, 50 mM KCl, 1 mM MgCl2, 0.5 mM DTT, 0.05 mg/ml BSA, 10 mg/ml salmon sperm DNA; room temperature, 20 min; recombinant protein; residues 1-150; protein details: 6xHis (pET28a); label: FAM or HEX; probe letters rebuilt from the primers and the genome

GTAAAACGACGGCCAGTATCTCAGGTTTGGCTTCGATAGCGGGAGTTGGCTCTGCAGGAGTCTCAGGCGCAGTTTCAGGTACTTCATTGGCTTTAGCCGCTTCCGCATCCATCTGCGGTTTGAGATAAAACAGATAAAATCCCGCACCTGCTCCACCTAATCCGAGTATCAGCACGAGTAGCATGAGTATTTTTTTCATTTTCCCCCGCTCGTAAAATTTCTCTAGCGCAACGTCATTGATATGAAAATGCGACGAATCTTACTTTCTTATCAATATAGCGGGATATTTGAACAAAGCTTGACCAGAAATCTTCTGATAAAAAGATTTTTTGAAGTAAAGGCACACTTCATGCTGTC (double strand) [cdgD footprinting probe]
binding result: binds

GTAAAACGACGGCCAGTCTTCTGTAGGAATTTTCTCTCAAAAAGATCACAACAACAGAATAGGAGGATTTATTTACGCTAAAGCTATTAATAACGTTGCCTATTTTATCTTTATTACATTATTATTTATCTATAAGTGTGATCTCTGCCATGGGTCTGTGACGATTGAAACGATATTTCTTTACATTACTGTTAAGTGTTTTTGCATTATTTGTGCGTGCTGCGGATTATTTGGATCCGAATGAGCAAGCGTATGTAGAGCAAAAATCTACAGTCACCATTGCAGTATTAAAAGAAATCTGGATGCCTTACTGGGGTGGGACAGGTCAGGAGCCGATAGGGTCATA (double strand) [vieS footprinting probe]
binding result: binds
